Results deposited as PubChem BioAssay AID624099 (ICCB-Longwood, 2012)
Test: 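Human genes that papillomavirus E2 requires to repress the HPV18 LCR promoter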 (primary screen). Cell system: human C33A cervical carcinoma cells (HPV-negative) stably expressing BPV1 E2 and an HPV18 LCR luciferase reporter. Reagent: siRNA pool against human genes, 40 nM. Timing: 72 h. Measured: 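Per-well luciferase luminescence, z-scored on each plate against the plate mean and SD with control wells left out, then averaged across three replicate plates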. Scale: mean z-score and z-score: higher = stronger reporter signal, weaker E2 silencing. Call rule: 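Hit if mean z-score reaches 2 and two or more of three replicate z-scores also reach 2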.
Here is a random part of about 21,000 reagents. Of all reagents, 497 (2.4%) were called active. 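Higher z means weaker E2 silencing; only reporter increases were scored, and knock-downs that hurt cell survival may mask genuine repressor factors.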 No sequences are given here.

SLC38A3 (GeneID 10991)
- mean z-score: 0.26
- z-score, replicate A: 0.49
- z-score, replicate B: 0
- z-score, replicate C: 0.29
- activity call: inactive

RPL3L (GeneID 6123)
- mean z-score: 0.76
- z-score, replicate A: 0.68
- z-score, replicate B: 0.76
- z-score, replicate C: 0.83
- activity call: inactive

CELA3B (GeneID 23436)
- mean z-score: -0.66
- z-score, replicate A: -1.14
- z-score, replicate B: -0.55
- z-score, replicate C: -0.29
- activity call: inactive

DGCR2 (GeneID 9993)
- mean z-score: 1.44
- z-score, replicate A: 1.69
- z-score, replicate B: 1.16
- z-score, replicate C: 1.47
- activity call: inactive

HNRNPA1 (GeneID 3178)
- mean z-score: 0.9
- z-score, replicate A: 1.29
- z-score, replicate B: 0.77
- z-score, replicate C: 0.64
- activity call: inactive

LOC388154 (retired record) (GeneID 388154)
- mean z-score: 1.14
- z-score, replicate A: 1.33
- z-score, replicate B: 0.81
- z-score, replicate C: 1.28
- activity call: inactive

C1QTNF2 (GeneID 114898)
- mean z-score: 0.31
- z-score, replicate A: 0.33
- z-score, replicate B: 0.74
- z-score, replicate C: -0.15
- activity call: inactive

IL1B (GeneID 3553)
- mean z-score: -0.16
- z-score, replicate A: -0.07
- z-score, replicate B: -0.2
- z-score, replicate C: -0.21
- activity call: inactive

LRRC57 (GeneID 255252)
- mean z-score: 0.68
- z-score, replicate A: 0.91
- z-score, replicate B: 0.41
- z-score, replicate C: 0.71
- activity call: inactive

STUB1 (GeneID 10273)
- mean z-score: -0.46
- z-score, replicate A: -0.29
- z-score, replicate B: -0.47
- z-score, replicate C: -0.61
- activity call: inactive

FZD5 (GeneID 7855)
- mean z-score: -0.54
- z-score, replicate A: -0.27
- z-score, replicate B: -0.52
- z-score, replicate C: -0.82
- activity call: inactive

The list goes on; the last 3 above are carried over.
LRRC57 (GeneID 255252)
- mean z-score: 0.68
- z-score, replicate A: 0.91
- z-score, replicate B: 0.41
- z-score, replicate C: 0.71
- activity call: inactive

STUB1 (GeneID 10273)
- mean z-score: -0.46
- z-score, replicate A: -0.29
- z-score, replicate B: -0.47
- z-score, replicate C: -0.61
- activity call: inactive

FZD5 (GeneID 7855)
- mean z-score: -0.54
- z-score, replicate A: -0.27
- z-score, replicate B: -0.52
- z-score, replicate C: -0.82
- activity call: inactive

ZBTB32 (GeneID 27033)
- mean z-score: 2.06
- z-score, replicate A: 2.54
- z-score, replicate B: 1.45
- z-score, replicate C: 2.19
- activity call: active

PDS5A (GeneID 23244)
- mean z-score: -0.62
- z-score, replicate A: -0.51
- z-score, replicate B: -0.87
- z-score, replicate C: -0.47
- activity call: inactive

RPL36 (GeneID 25873)
- mean z-score: -4.28
- z-score, replicate A: -4.08
- z-score, replicate B: -4.41
- z-score, replicate C: -4.35
- activity call: inactive

SPTY2D1 (GeneID 144108)
- mean z-score: 1.15
- z-score, replicate A: 1.45
- z-score, replicate B: 1.1
- z-score, replicate C: 0.9
- activity call: inactive

CDRT4 (GeneID 284040)
- mean z-score: -0.77
- z-score, replicate A: -0.6
- z-score, replicate B: -1.07
- z-score, replicate C: -0.64
- activity call: inactive

ZNF280A (GeneID 129025)
- mean z-score: -0.18
- z-score, replicate A: -0.2
- z-score, replicate B: -0.13
- z-score, replicate C: -0.2
- activity call: inactive

ZBTB6 (GeneID 10773)
- mean z-score: -0.05
- z-score, replicate A: -0.14
- z-score, replicate B: 0.32
- z-score, replicate C: -0.32
- activity call: inactive

ARMC12 (GeneID 221481)
- mean z-score: 0.22
- z-score, replicate A: 0.09
- z-score, replicate B: 0.19
- z-score, replicate C: 0.39
- activity call: inactive

PRMT8 (GeneID 56341)
- mean z-score: 0.54
- z-score, replicate A: 0.44
- z-score, replicate B: 0.54
- z-score, replicate C: 0.65
- activity call: inactive

MTMR4 (GeneID 9110)
- mean z-score: -0.91
- z-score, replicate A: -0.88
- z-score, replicate B: -0.87
- z-score, replicate C: -0.99
- activity call: inactive
